PubChem BioAssay AID504761 – Drosophila RNAi Screening Center | 2011

- Screen: 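Insect host genes that dengue virus relies on to spread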 (primary screen)
- Cells: D.Mel-2 cells from Drosophila
- Reagent: long dsRNA against Drosophila genes
- Treatment: infection with dengue virus type 2; dose and infection time not stated
- Read-out: 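Cells stained for dengue envelope protein and imaged; percent of infected cells per well on duplicate plates, ranked by infection, with stained nuclei counted for cell number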
- Scale: infection score: higher = more virus-infected cells; cell count: higher = more cells in the well
- Call rule: 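Very low infection ranking in both replicate wells (chance probability at most 0.065), then a retest showing infection dropped 1.5-fold or more at p below 0.05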
- Calls: active = confirmed: knock-down lowers infection; inactive = not picked or not confirmed
The screen tested about 22,000 reagents; this is a random part of those that have a named target and a result. Of all reagents, 116 (0.52%) got an active call. 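Calls depend on retest data that are not deposited; infection was ranked per plate without normalising between plates; the unit of the infection score is not given.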 Raw values are not corrected between plates. Names joined by + are all predicted targets of the reagent. Not stated in the record: the amount of reagent, the time to read-out.

| gene | PubChem SID | infection score, replicate 1 | infection score, replicate 2 | cell count, replicate 1 | cell count, replicate 2 | activity call |
| --- | --- | --- | --- | --- | --- | --- |
| CG32407 | SID104189581 | 1.17 | 7.62 | 6159 | 5736 | inactive |
| CG11313 | SID104194087 | 1.15 | 2.34 | 6170 | 6756 | inactive |
| CG9917 | SID104200010 | 14 | 11.3 | 6613 | 6187 | inactive |
| Pitslre | SID104191666 | 19.4 | 36.4 | 3042 | 3048 | inactive |
| Pitslre | SID104202703 | 12 | 42.9 | 6271 | 5297 | inactive |
| Mo25 | SID104191016 | 8.66 | 20.5 | 5609 | 4970 | inactive |
| Rbpn-5 (Rabaptin-5) | SID104184232 | 10.1 | 23.8 | 6089 | 5123 | inactive |
| Rbpn-5 (Rabaptin-5) | SID104204686 | 3.82 | 1.09 | 5860 | 6119 | inactive |
| CG15198 | SID104199437 | 7 | 9.28 | 6370 | 6651 | inactive |
| Tsp42A (Tetraspanin 42A) | SID104184654 | 4.8 | 12.2 | 6917 | 4003 | inactive |
| CG1722 | SID104200339 | 2.17 | 0.35 | 6224 | 6588 | inactive |
| CG13510 | SID104183944 | 7.94 | 7.18 | 6084 | 6141 | inactive |
| CG12075 | SID104197593 | 7.82 | 4.82 | 6008 | 6165 | inactive |
| CG12075 | SID104203803 | 3.38 | 2.94 | 6741 | 6331 | inactive |
| GatA (Glutamyl-tRNA amidotransferase, subunit A) | SID104196748 | 2.69 | 9.36 | 6286 | 6560 | inactive |
| SRPK (SR Protein Kinase) | SID104186882 | 6.79 | 13.1 | 5802 | 6375 | inactive |
| SRPK (SR Protein Kinase) | SID104206706 | 7.73 | 11.3 | 6353 | 6348 | inactive |
| CG12773 | SID104198372 | 2.49 | 10.4 | 5791 | 6603 | inactive |
| CG12773 | SID104203468 | 2.34 | 3.48 | 6406 | 6128 | inactive |
| tplus3b + tplus3a | SID104204944 | 5.03 | 5.04 | 6502 | 6253 | inactive |
| Dtwd2 + Obp84a | SID104192395 | 4.19 | 22.9 | 6513 | 2259 | inactive |
| Dtwd2 + Obp84a | SID104205350 | 4.07 | 2.14 | 6432 | 7042 | inactive |
| mEFTu1 (mitochondrial translation elongation factor Tu 1) | SID104186751 | 17.7 | 19.7 | 5063 | 5470 | inactive |
| mEFTu1 (mitochondrial translation elongation factor Tu 1) | SID104208012 | 21.2 | – | 5140 | 428 | inactive |
| Cyp301a1 (Cytochrome P450 301a1) | SID104187157 | 11.6 | 5.8 | 4448 | 6798 | inactive |
| CG8170 | SID104186879 | 8.84 | 4.53 | 6086 | 5652 | inactive |
| Mppe (Metallophosphoesterase) | SID104187088 | 24.1 | 31.2 | 2542 | 4153 | inactive |
| CG33270 | SID104190376 | 3.65 | 8.68 | 5312 | 5864 | inactive |
| CG33464 (retired record) | SID104202293 | 2.06 | 16.5 | 6014 | 5862 | inactive |
| exd (extradenticle) | SID104200122 | 5.84 | 16.6 | 6577 | 6020 | inactive |
| exd (extradenticle) | SID104208643 | 3.17 | 11.3 | 6457 | 3015 | inactive |
| CR33328 (retired record) | SID104202311 | 1.34 | 0.69 | 6735 | 6847 | inactive |
| CR33328 (retired record) | SID104205744 | 15.4 | 10.6 | 6539 | 6068 | inactive |
| CG31735 | SID104181310 | 2.27 | 0.75 | 5725 | 5698 | inactive |
| CG31735 | SID104208616 | 2.56 | 8.16 | 6412 | 5830 | inactive |
| Uba1 (Ubiquitin activating enzyme 1) | SID104187359 | 7.07 | 12.1 | 3253 | 3782 | inactive |
| Uba1 (Ubiquitin activating enzyme 1) | SID104206894 | 24.3 | 16.7 | 2794 | 3056 | inactive |
| Gnf1 (Germ line transcription factor 1) | SID104192143 | 5.71 | 11.3 | 5551 | 5764 | inactive |
| Gnf1 (Germ line transcription factor 1) | SID104205226 | 1.54 | 1.4 | 6355 | 6409 | inactive |
| TRAM | SID104197970 | 4.36 | 10.5 | 2319 | 5107 | inactive |
| TRAM | SID104198443 | – | 15.9 | 366 | 3733 | inactive |
| Dek | SID104187210 | 11 | 4.19 | 6995 | 6782 | inactive |
| Dek | SID104202948 | 4.43 | 1.24 | 6621 | 6510 | inactive |
| LysE (Lysozyme E) | SID104188467 | 4.51 | 11.5 | 6519 | 5890 | inactive |
| hbs (hibris) | SID104187419 | 17.5 | 14.2 | 6274 | 5953 | inactive |
| alpha4GT2 (alpha1,4-galactosyltransferase 2) | SID104195697 | 2.66 | 3.67 | 5913 | 6238 | inactive |
| Miro (Mitochondrial Rho) | SID104195587 | 2.98 | 2.69 | 6169 | 6097 | inactive |
| Vha36-1 (Vacuolar H[+] ATPase 36kD subunit 1) | SID104186890 | 35.4 | 21.1 | 5565 | 6439 | inactive |
| Vha36-1 (Vacuolar H[+] ATPase 36kD subunit 1) | SID104204168 | 0.45 | 4.52 | 6184 | 6286 | inactive |
| Mitofilin | SID104196534 | 1.67 | 3.14 | 6514 | 6594 | inactive |
| CG32079 | SID104202044 | 7.46 | 8.54 | 6312 | 6519 | inactive |
| VhaAC45RP (VhaAC45-related protein) | SID104195215 | 2.08 | 1.68 | 6745 | 6591 | inactive |
| VhaAC45RP (VhaAC45-related protein) | SID104205530 | 6.42 | 12.4 | 6344 | 6237 | inactive |
| CG5687 | SID104188360 | 6.59 | 20.4 | 6283 | 5433 | inactive |
| CG14610 + asRNA:CR42738 | SID104192346 | 2.14 | 2.91 | 6544 | 6643 | inactive |
| CG9389 | SID104191649 | 18.2 | 8.01 | 5994 | 7214 | inactive |
| CG15317 | SID104197797 | 5.61 | 5.87 | 6592 | 6505 | inactive |
| CG15317 | SID104204468 | 6.89 | 10.3 | 6128 | 6205 | inactive |

Sorted by “infection score, replicate 1” (low to high): some entries from above.
| gene | PubChem SID | infection score, replicate 1 | infection score, replicate 2 | cell count, replicate 1 | cell count, replicate 2 | activity call |
| --- | --- | --- | --- | --- | --- | --- |
| CR33328 (retired record) | SID104202311 | 1.34 | 0.69 | 6735 | 6847 | inactive |
| CG33464 (retired record) | SID104202293 | 2.06 | 16.5 | 6014 | 5862 | inactive |
| CG31735 | SID104181310 | 2.27 | 0.75 | 5725 | 5698 | inactive |
| CG31735 | SID104208616 | 2.56 | 8.16 | 6412 | 5830 | inactive |
| exd (extradenticle) | SID104208643 | 3.17 | 11.3 | 6457 | 3015 | inactive |
| CG33270 | SID104190376 | 3.65 | 8.68 | 5312 | 5864 | inactive |
| exd (extradenticle) | SID104200122 | 5.84 | 16.6 | 6577 | 6020 | inactive |
| CG8170 | SID104186879 | 8.84 | 4.53 | 6086 | 5652 | inactive |
| CR33328 (retired record) | SID104205744 | 15.4 | 10.6 | 6539 | 6068 | inactive |
| Mppe (Metallophosphoesterase) | SID104187088 | 24.1 | 31.2 | 2542 | 4153 | inactive |
